Pooled drug test results. Numbers come from NIAID ChemDB, via PubChem.

Common to all: growth or infection tests; species: HIV-1; endpoint: inhibition

Two numbers with a dash give a range or band. Conditions beyond the fields shown may differ between rows. Blank or dashed fields: not listed here. Percent inhibition refers to the dose given; in toxicity tests it is the harm to the cells.

smiles | tested at | conditions | method | cells | strain or isolate | value
CC(C)(C)OC(=O)Nc1ccc(C(=O)N2CCN(C(=O)C(=O)c3c[nH]c4cccc(F)c34)CC2)cc1 | 10 µM | - | luciferase | HeLa + HELA CD4+/CCR5 | - | 95%
CC(=O)N1C(=O)[C@@H](Cc2ccc(Cl)cc2)NC1=S | 1 µg/mL | - | cytopathic effect / XTT | MT-4 | - | 5%
CC1/C=C/C=C/C=C/C=C/C=C/C=C/C=C/C(OC2OC(C)C(O)C(N)C2O)CC(O)C(C(=O)O)C(O)CC(=O)CC(O)CC(O)CC(O)CC(=O)CCCC(=O)CC(=O)OC1 | 0.01 µg/mL | - | p24 / antigen | H9 | IIIB | 0%
COC(=O)c1cccc2c(C(=O)C(=O)N3CCN(C(=O)c4ccc(Br)o4)C[C@H]3C)c[nH]c12 | 10 µM | - | luciferase | HeLa + HELA CD4+/CCR5 | - | >98%
O=C1[C@@H](Cc2ccccc2)NC(=S)N1c1ccccc1 | 10 µg/mL | - | RT activity | MT-4 | - | 63%
CCCCCCCCCCCCCCCCOP(=O)(OC[C@H]1OC(O)[C@@H](O)[C@@H](O)[C@@H]1O)OC[C@H]1O[C@@H](n2cc(C)c(=O)[nH]c2=O)C[C@@H]1N=[N+]=[N-] | 1 µM | 26 d | RT activity | CEM | LAV-Bru | 0%
CCCCN1C(=O)[C@@H](Cc2ccccc2)NC1=S | 100 µg/mL | - | RT activity | MT-4 | - | 98%
CC1(C)[C@@H](O[C@H]2O[C@H](C(=O)O)[C@@H](O)[C@H](O)[C@H]2O[C@@H]2O[C@H](C(=O)O)[C@@H](O)[C@H](O)[C@H]2O)CC[C@]2(C)[C@H]3C(=O)C=C4[C@@H]5C[C@@](C)(C(=O)O)CC[C@]5(C)CC[C@@]4(C)[C@]3(C)CC[C@@H]12 | 6 µM | - | cytopathic effect | MT-4 | IIIB | 33%
Cc1ccc(-c2ccc3c(c2)C=C(C(=O)Nc2ccc(C[N+](C)(C)C4CCOCC4)cc2)CCC3)cc1 | 1 µM | - | p24 | PBMC | Du368 CLADE C | 92%
O=C(C(=O)N1CCN(C(=O)c2ccccc2)CC1)c1c[nH]c2c(OCC(F)(F)F)ccc(F)c12 | 10 µM | - | luciferase | HeLa + HELA CD4+/CCR5 | - | >98%
O=C(NCCc1ccccc1)Nc1nc2c(Cl)cccc2s1 | 100 µg/mL | - | RT activity | MT-4 | - | 97%
COc1cccc2c(C(=O)C(=O)N3CCN(C(=O)c4ccccn4)C[C@H]3C)c[nH]c12 | 10 µM | - | luciferase | HeLa + HELA CD4+/CCR5 | - | >98%
CC(C)[C@H](NC(=O)[C@H](CO)NC(=O)[C@@H](N)CSSCC(=O)O)C(=O)N[C@H](C(=O)N[C@@H](CSSCC(=O)O)C(=O)NCC(=O)O)[C@@H](C)O | 0.3 µM | - | p24 | PBMC(PHA STIM.) + PBMC | p13 | 73%
O=C(C(=O)N1CCN(C(=O)c2ccc(Cl)o2)CC1)c1c[nH]c2c(F)ccc(F)c12 | 10 µM | - | luciferase | HeLa + HELA CD4+/CCR5 | - | >98%
O=c1oc2cc(O)cc(O)c2c(O)c1-c1coc2c1c(=O)oc1cc(O)cc(O)c12 | 0.001 µM | - | MTT | MT-4 | IIIB | 0%
Cc1ccnc(NC(=O)NCCc2ccccc2)n1 | 100 µg/mL | - | cytopathic effect / XTT | MT-4 | - | 100%
CO[C@]1(C)OC[C@H]([C@@H]2CC(=O)C[C@H](c3ccccc3)C23C(=O)OC(C)(C)OC3=O)O[C@@]1(C)OC | 0.1 µM | - | MTT | SupT1 | NL4-3 | >45%
Cc1nc(NC(=O)NCCc2ccccc2)sc1C | 10 µg/mL | - | cytopathic effect / XTT | MT-4 | - | 85–88%
Cc1cn([C@H]2C[C@H](N=[N+]=[N-])[C@@H](COP(=O)(O)OCCO[C@H]3O[C@H](CO)[C@@H](O)[C@H](O)[C@@H]3O)O2)c(=O)[nH]c1=O | 5 µM | 26 d | RT activity | CEM | LAV-Bru | 0%
N=C1Sc2ccccc2C2=NCCCN12 | 1.89 µM | - | MTS | PBMC | 92UG001 | 90%
C[C@H]1[C@H](O)[C@@H](C)/C=C/C=C/C=C/C=C/C=C/C=C/C=C/[C@H](O[C@@H]2O[C@H](C)[C@@H](O)[C@H](N)[C@@H]2O)C[C@@H]2O[C@](O)(C[C@@H](O)C[C@@H](O)CC[C@H](O)[C@@H](O)C[C@@H](O)CC(=O)O[C@H]1C)C[C@H](O)[C@H]2C(=O)O | 2.1 µM | - | p24 / RT activity | PBMC | 93BR029 CLADE F R5 (NSI) | 90%
CC(C)[C@H](NC(=O)[C@H](CO)NC(=O)[C@H](CS)NC(=O)CCC(=O)NCCCOCCOCCCN)C(=O)N[C@H](C(=O)N[C@@H](CS)C(=O)NCC(=O)O)[C@@H](C)O | 0.66 µM | - | p24 | PBMC(PHA STIM.) + PBMC | IIIB | 100%
COc1c(Cl)cc(S)cc1C(=O)N1CCN(C(=O)C(=O)c2c[nH]c3cccc(F)c23)CC1 | 10 µM | - | luciferase | HeLa + HELA CD4+/CCR5 | - | >98%
CCCCCCCCCCCCCCCCOP(=O)(OCCO[C@@H]1O[C@H](CO)[C@@H](O)[C@H](O)[C@@H]1O)OC[C@H]1O[C@@H](n2cc(C)c(=O)[nH]c2=O)C[C@@H]1N=[N+]=[N-] | 1 µM | 15 d | RT activity | CEM | LAV-Bru | 71%
N=C1Sc2ccccc2C2=NCCCN12 | 3.8 µM | - | β-galactosidase | TZM-bl | Jv1083 | 90%
O=C1[C@@H](c2ccc(-c3ccccc3)cc2)NC(=S)N1c1ccccc1 | 10 µg/mL | - | cytopathic effect / XTT | MT-4 | - | 0%

The last 3 rows once more:

| smiles | tested at | conditions | method | cells | strain or isolate | value |
|---|---|---|---|---|---|---|
| CCCCCCCCCCCCCCCCOP(=O)(OCCO[C@@H]1O[C@H](CO)[C@@H](O)[C@H](O)[C@@H]1O)OC[C@H]1O[C@@H](n2cc(C)c(=O)[nH]c2=O)C[C@@H]1N=[N+]=[N-] | 1 µM | 15 d | RT activity | CEM | LAV-Bru | 71% |
| N=C1Sc2ccccc2C2=NCCCN12 | 3.8 µM | - | β-galactosidase | TZM-bl | Jv1083 | 90% |
| O=C1[C@@H](c2ccc(-c3ccccc3)cc2)NC(=S)N1c1ccccc1 | 10 µg/mL | - | cytopathic effect / XTT | MT-4 | - | 0% |